Molecular target: recombinant HIV-gp120 (HIV)
Assay: binding of partially purified salivary DMBT1 from deletion carriers against wild type donors

Q: For “DMBT1 from saliva of donors carrying the DMBT1 germline deletion (shortened allele) (receptor)”, which decreased binding efficacy (against wild type DMBT1) is on record?
A: 30%

Source: patent publication US8017124
